Source: PMC7043342

Legend:
[1] = molecular target: ComE D58E (phosphomimetic) (UniProt Q79CK7); test: EMSA; conditions: 5 mM MgCl2, poly(dI-dC), weaker than with SPD_1495; recombinant protein; residues 1-250; label: 5'-biotin (on cpsF primer); probe letters rebuilt from the primers and the genome
[2] = test system: ComE D58E (phosphomimetic) + SPD_1495; test: EMSA; conditions: 5 mM MgCl2, poly(dI-dC), stronger than ComE D58E alone; recombinant protein; protein details: GST removed by thrombin (pGEX-4T-1); label: 5'-biotin (on cpsF primer); probe letters rebuilt from the primers and the genome

## TACACATCTGCTTCTAAAATATTGTTAGAAAACGATTTGACTGTCCTGATCAATTTGTCATGTTCTTATTTCATTTTACTATATTTTTGGTTCGCGGGAAGTCTACTAAGATACTTAAAGATGCAGATAGTGAAAAAAGGTGTAGACATTACCGTAAAAAAGTGATATAATCGTAAGATGTTCAATGTATAGGTGTTAATCATGAGTAGACGTTTTAA (double strand) [Bio-cps (cps upstream promoter)]
[1]
  binding result: binds
[2]
  binding result: binds

Construct, isoform or probe ends are uncertain for at least one entry.
